What follows are molecules tested on S. aureus 10 (assay: Model of staphylococcal sepsis in mice).
Type: in vivo
Protocol: To determine the ability of drugs to suppress staphylococcal sepsis, a clinical isolate of S. aureus 10, lacking drug resistance and adapted for use in animals, was used. Animals, divided into several experimental groups, were intravenously infected with a lethal dose of S. aureus (0.1 mL each) (Groups 1–5). […] Along with the testing of compounds of the trisndolylmethylium class, a similar experiment was carried out with levofloxacin, taken as a reference drug for a separate group of animals (Group 4). The control group of animals received an intravenous injection of 5% glucose solution instead of the tested preparations (Group 5). Another control group, which also received a single injection of 5% glucose solution, consisted of animals that were not exposed to infection (Group 6). To study each drug, 110–150 animals were required, which were divided into small subgroups of 10 mice each to test various doses of the compounds studied. The number of dead animals and the time of their death were recorded daily, and the appearance of the animals and their weight were assessed. The duration of the experiment was 14 days.
The study was conducted on adult female SHK mice (18–20 g) obtained from the animal breeding unit of the FMBA (Scientific Center for Biomedical Technologies of the Federal Biomedical Agency, Moscow, Russia). The animals were randomly divided into groups (n = 6 for the study of acute toxicity, n = 10 (or 8) to study the efficacy of suppressing staphylococcal sepsis). […]
The experiment used a strain of S. aureus 10, having no drug resistance and adapted for use in animals. […] LD100 dose of staphylococcus detected in the experiment was 8.0 × 10^8 CFU/mouse, which was then used for infecting animals.
The chemotherapeutic efficacy of tris(indolyl)methane derivatives was determined in a model of staphylococcal sepsis in mice. […] The number of dead animals and the time of their death were recorded daily, and the body weight of the animals was recorded three times a week. Their feed intake was monitored, and clinical signs of animal health were assessed daily. […]
In the case of `OCCCCCn1cc([C+](c2cn(CCCCCO)c3ccccc23)c2cn(CCCCCO)c3ccccc23)c2ccccc21.[Cl-]` [Compound 1, tris(1-(5-Hydroxypentyl)-1H-indol-3-yl) methylium chloride], the “TI (therapeutic index, ratio of LD50 to ED50)” value is reported as 3.45.
`CCCn1cc([C+](c2cn(CCC)c3ccccc23)c2cn(C3=C(N(C)C)C(=O)NC3=O)c3ccccc23)c2ccccc21` [Compound 3, 1-(4-Dimethylamino-2,5-dioxo-2,5-dihydro-1H-pyrrol-3-yl) -1H-indol-3-yl) bis(1-propyl-1H-indol-3-yl) methylium chloride] was tested, and the “TI (therapeutic index, ratio of LD50 to ED50)” value was 22.2.
In the case of `CCCn1cc([C+](c2cn(CCC)c3ccccc23)c2cn(C3=C(N)C(=O)NC3=O)c3ccccc23)c2ccccc21.[Cl-]` [Compound 2, (1-(4-Amino-2,5-dioxo-2,5-dihydro-1H-pyrrol-3-yl)-1H-indol-3-yl)bis(1-propyl-1H-indol-3-yl) methylium chloride], the “TI (therapeutic index, ratio of LD50 to ED50)” value is reported as 2.3.

Source: publication PMC8878324, “Evaluation of New Antimicrobial Agents Based on tris(1H-Indol-3-yl)methylium Salts: Activity, Toxicity, Suppression of Experimental Sepsis in Mice” (Pharmaceuticals, 2022)
